A mixed list of measured activities; the numbers were collected in NIAID ChemDB.

All rows: growth or infection tests; organism: Parainfluenza virus; method: cytopathic effect; read-out: EC50

ECn: concentration that inhibits the pathogen or its effect by n%.

smiles,strain,cell line,value
Nc1ncnc2c1ncn2CCCC(O)CF,TYPE 3,VERO,>400 µg/mL
CC1(C)[C@@H](CO)CC[C@@]1(C)Cn1nnc2c(N)ncnc21,TYPE 3,VERO,>400 µg/mL
O=C(NCCc1ccccc1)C1=Cc2ccncc2CC1,14702 (TYPE 3),MA-104,>344 µM
N#Cc1cncc([C@H]2O[C@H](CO)[C@H](O)[C@@H]2O)c1,TYPE 3,VERO,≥100 µg/mL
Nc1ncnc2c1ncn2[C@@H]1O[C@H](C=O)C[C@H]1O,TYPE 3,VERO,>400 µg/mL
NC(=O)CSc1ncnc2c1cnn2CCCCO,TYPE 3,VERO,>400 µg/mL
Nn1c(-c2cn(-c3ccccc3)nc2-c2ccccc2)n[nH]c1=S,TYPE 3,VERO,>16 µg/mL
NC(=O)c1cncc([C@@H]2O[C@H](CO)[C@@H](O)[C@@H]2O)c1,TYPE 3,VERO,≥100 µg/mL
Nc1ncnc2c1ncn2[C@@H]1O[C@H](C=O)[C@@H](O)[C@H]1O,TYPE 3,VERO,>200 µg/mL
COS(=O)(=O)O.N=C(N)c1ccc2cc(OC(=O)c3ccc(N=C(N)N)cc3)ccc2c1,HA-1/C243,VERO,>110 µg/mL
OC[C@H]1O[C@@H](c2cncc(Br)c2)[C@@H](O)[C@@H]1O,TYPE 3,VERO,≥100 µg/mL
CC1(CO)CCC(Cn2nnc3c(=O)[nH]c(N)nc32)C1(C)C,TYPE 3,VERO,>200 µg/mL
Cc1cc(=O)c2c(O)c(C)c(O[C@H]3O[C@H](CO)[C@@H](O)[C@H](O)[C@H]3O)c(C)c2o1,TYPE 3,HEP-2,13.8 µg/mL
NC1CCCON2CCc3c([nH]c4ccccc34)[C@H]12,TYPE 3,VERO,4 µg/mL
C1=CCC2(CC1)COC(c1ccco1)OC2,HA-1/C243,VERO,>500 µg/mL
Nc1ncnc2c1ncn2[C@@H]1C=C(CO)[C@@H](O)[C@H]1O,TYPE 3,VERO,2 µg/mL
Nc1ccn([C@@H]2C=C(CO)[C@@H](O)[C@H]2O)c(=O)n1,TYPE 3,VERO,0.2 µg/mL
CC1(C)[C@@H](CO)CC[C@@]1(C)Cn1cnc2c(Cl)ncnc21,TYPE 3,VERO,>400 µg/mL
CC1(CO)CCC(Cn2nnc3c(N)nc(N)nc32)C1(C)C,TYPE 3,VERO,>200 µg/mL
N#Cc1cncc([C@@H]2O[C@H](CO)[C@@H](O)[C@@H]2O)c1,TYPE 3,VERO,≥100 µg/mL
Nc1ncnc2c1ncn2C1CC(CO)[C@@H](O)[C@H]1O,TYPE 1,VERO,3 µg/mL
Nc1ncnc2c1ncn2[C@H]1C[C@H](O)[C@@H](C=O)O1,TYPE 3,VERO,70 µg/mL
CON1CCc2c([nH]c3ccccc23)[C@@H]1[C@@H](N)CSC,TYPE 3,VERO,>40 µg/mL
Nc1nccc2c1ncn2[C@@H]1C[C@H](CO)[C@@H](O)[C@H]1O,TYPE 3,VERO,1 µg/mL
c1ccc(C2=Nn3c(nnc3-c3cn(-c4ccccc4)nc3-c3ccccc3)SC2)cc1,TYPE 3,VERO,>16 µg/mL
CCOC(=O)c1ccc(OC(=O)CCCCCN=C(N)N)cc1.COS(=O)(=O)O,HA-1/C243,VERO,>150 µg/mL
CC1(CO)CCC(Cn2cnc3c(N)nc(N)nc32)C1(C)C,TYPE 3,VERO,>40 µg/mL
CC(C)CS[C@@H]1C=C[C@H](n2cnc3c(N)ncnc32)C1,TYPE 3,HeLa,>3.2 µg/mL
Cc1cn(CCCC(O)CF)c(=O)[nH]c1=O,TYPE 3,VERO,>400 µg/mL
c1ccc(-c2nn3c(-c4cn(-c5ccccc5)nc4-c4ccccc4)nnc3s2)cc1,TYPE 3,VERO,>16 µg/mL
CC(Sc1ncnc2c1cnn2COCCO)C(N)=O,TYPE 3,VERO,>400 µg/mL
Nc1ncnc2c1ncn2[C@@H]1O[C@H](/C=N/O)C[C@H]1O,TYPE 3,VERO,>400 µg/mL
OC[C@H]1O[C@H](c2cncc(Br)c2)[C@@H](O)[C@@H]1O,TYPE 3,VERO,≥100 µg/mL
CCC(Sc1ncnc2c1cnn2COCCO)C(N)=O,TYPE 3,VERO,>400 µg/mL
CC1(C)[C@@H](CO)CC[C@@]1(C)Cn1cc(I)c(=O)[nH]c1=O,TYPE 3,VERO,>400 µg/mL
Nn1c(SCC(=O)O)nnc1-c1cn(-c2ccccc2)nc1-c1ccccc1,TYPE 3,VERO,>80 µg/mL
NC1CSCON2CCc3c([nH]c4ccccc34)[C@H]12,TYPE 3,VERO,0.2 µg/mL
Cc1cn([C@H]2C[C@H]([N+](=O)[O-])[C@@H](CO)O2)c(=O)[nH]c1=O,,VERO,>200 µg/mL

Repeating the final 5 entries:

| smiles | strain | cell line | value |
|---|---|---|---|
| CCC(Sc1ncnc2c1cnn2COCCO)C(N)=O | TYPE 3 | VERO | >400 µg/mL |
| CC1(C)[C@@H](CO)CC[C@@]1(C)Cn1cc(I)c(=O)[nH]c1=O | TYPE 3 | VERO | >400 µg/mL |
| Nn1c(SCC(=O)O)nnc1-c1cn(-c2ccccc2)nc1-c1ccccc1 | TYPE 3 | VERO | >80 µg/mL |
| NC1CSCON2CCc3c([nH]c4ccccc34)[C@H]12 | TYPE 3 | VERO | 0.2 µg/mL |
| Cc1cn([C@H]2C[C@H]([N+](=O)[O-])[C@@H](CO)O2)c(=O)[nH]c1=O |  | VERO | >200 µg/mL |

Neighbouring rows are from separate reports. An empty or dashed field is not shown.